Measured values from several laboratories, pooled; numbers as filed in NIAID ChemDB.

Shared fields: tests in culture; agent: Mycobacterium tuberculosis

Lines come from different laboratories, so protocols vary. Zone: diameter of growth inhibition. Percent inhibition refers to the dose given; in toxicity tests it is the harm to the cells. MIC bound comes from a single tested concentration. A number after MIC or MFC names an inhibition level or a share of isolates. Blank or dashed fields: not listed here.

compound	measure	cell line	strain	read by	tested at	value
Nc1ncnc2c1ncn2[C@@H]1O[C@H](COP(=O)([O-])CC(=O)c2ccccc2O)[C@@H](O)[C@H]1O	MIC					>100 µM
Nc1cc2[nH]cc(C(=O)O)c(=O)c2cc1[N+](=O)[O-]	MIC50		ATCC 27294 (WT)			>200 µM
O=C(NNC(=O)c1cccc2ccccc12)c1ccc(Cl)cc1Cl	inhibition		H37Rv	BACTEC	12.5 µg/mL	26%
O=[N+]([O-])c1ccc(Sc2nc3c(Cl)cc(Cl)cc3[nH]2)c([N+](=O)[O-])c1	MIC		My 331/88			32 µM
Cc1ccc(C2CC(c3ccccc3)=NN2C(=O)c2ccc(O)cc2)cc1	MBC		H37Ra	visual reading		562 µM
CC(C)c1ccc(O)c(=O)cc1	inhibition		H37Rv	BACTEC	12.8 µg/mL	82%
CO[C@H]1/C=C/O[C@@]2(C)Oc3c(C)c(O)c4c(O)c(c(/C=N/N5CCN(C)CC5)c(O)c4c3C2=O)NC(=O)/C(C)=C\C=C\[C@H](C)[C@H](O)[C@@H](C)[C@@H](O)[C@@H](C)[C@H](OC(C)=O)[C@@H]1C	MIC		TN1916			>32 µg/mL
CCOC(=O)c1nc2ccccc2nc1Nc1ccc(OC)c(OC)c1	MIC bound		H37Rv	BACTEC		>12.5 µg/mL
COc1ccc(C2CC(c3ccccc3)=NN2C(=S)Nc2ccccc2)cc1	MIC		H37Ra	MTT		>517 µM
O=c1ccc2c(-c3ccccc3)cc(N3CCN(c4ccccc4)CC3)nc2[nH]1	inhibition		H37Rv		6.25 µg/mL	32%
NNC(=O)c1cc(-c2ccc([N+](=O)[O-])s2)nc2ccccc12	MIC		H37Rv	fluorescence		1.56 µg/mL
FC(F)(F)c1nc2c(Br)c(Br)c(Br)c(Br)c2[nH]1	MIC		My 331/88			32 µM
Nc1cc(S(=O)(=O)O)c2cccnc2c1O	inhibition		H37Rv	resazurin	6.25 µg/mL	6%
CCCC(C)Nc1cc2c(cc1[N+](=O)[O-])c(=O)c(C(=O)O)cn2C(C)CCC	MIC50		ATCC 27294 (WT)			>200 µM
COc1ccc([C@@H]2CC3(C[C@H](c4ccc(OC)cc4)N2)N=c2c(c4c5c6c(C)c(O)c4c(O)c2=NC(=O)/C(C)=C\C=C\[C@H](C)[C@H](O)[C@@H](C)[C@H](O)[C@H](C)[C@H](OC(C)=O)[C@H](C)[C@@H](OC)/C=C/O[C@@](C)(O6)C5=O)N3)cc1	MIC		ATCC 35838 (rifampicin- rifabutin-resistant)			1 µg/mL
Oc1ccccc1/C=N/N1C(=S)N(c2ccccc2)C(=Nc2ccccc2)C1=Nc1ccccc1	MIC bound		H37Rv	BACTEC		>12.5 µg/mL
Cc1ccc(NC(=O)c2cc(-c3cccs3)nc3ccc(C)cc23)cc1	MIC		H37Rv	fluorescence		>6.25 µg/mL
O=C(O)c1cn(C2CCCC2)c2cc(NC3CCCC3)c(F)cc2c1=O	MIC50		ATCC 27294 (WT)			>200 µM
C=CCN1[C@@H](c2ccccc2)CC2(C[C@H]1c1ccccc1)N=c1c(c3c4c5c(C)c(O)c3c(O)c1=NC(=O)/C(C)=C\C=C\[C@H](C)[C@H](O)[C@@H](C)[C@H](O)[C@H](C)[C@H](OC(C)=O)[C@H](C)[C@@H](OC)/C=C/O[C@@](C)(O5)C4=O)N2	MIC		ATCC 35838 (rifampicin- rifabutin-resistant)			>1 µg/mL
Clc1ccc2c(-c3ccccc3)cc(N3CCNCC3)nc2n1	MIC		H37Rv			>6.25 µg/mL
Cc1cc(Cl)cc2c1NC(=O)C2(O)C(C(=O)C1=CCC=C=C1)c1ccccc1	inhibition		H37Rv	resazurin	6.25 µg/mL	39%
COc1ccc(-c2nn(-c3ccccc3)cc2C2C3=C(NC(C)(c4cc(O)c(I)cc4Cl)NC3=O)Oc3c2c(C)nn3-c2ccccc2)cc1	zone		MTCC 300	agar diffusion / agar	0.1 mg/mL	2 mm
NNC(=O)c1ccncc1	MIC		Strain 102			0.06 µg/mL
Nc1cnn2nnnc2c1	MIC bound		H37Rv	BACTEC		>12.5 µg/mL
C=Cn1cc(C(=O)O)c(=O)c2cc([N+](=O)[O-])c(NCCF)cc21	MIC50		ATCC 27294 (WT)			>200 µM
CC1CN(/N=C/c2ccc([N+](=O)[O-])o2)C(=O)O1	MIC bound		H37Rv	BACTEC		>12.5 µg/mL
O=[N+]([O-])c1ccc(CSc2ncn[nH]2)cc1	MIC		My 331/88			1000 µM
CC(C)c1cc2c(c(O)c1O)[C@@]13C[C@@H](O)CC(C)(C)[C@@H]1C[C@@H]2OC3=O	MIC		H37Rv (ATCC 27294)			>650 µM
CC(=O)c1cc([N+](=O)[O-])c2nc(C34CC5CC(CC(C5)C3)C4)ccc2c1	MIC		H37Rv			>6.25 µg/mL
c1ccc(-c2nc(N=C3N=c4ccccc4=N3)[nH]c2-c2ccccn2)nc1	MIC	VERO	H37Rv			6.25 µg/mL
CCN1CCN(c2cc(-c3ccccc3)c3ccc(Cl)nc3n2)CC1	inhibition		H37Rv		6.25 µg/mL	68%
COc1ccc(C2CC(c3ccccc3)=NN2C(=O)c2ccc(O)cc2)cc1	MBC		H37Ra	visual reading		>535 µM
NC(N)=N[C@H]1[C@H](O)[C@@H](O)[C@H](OCCO[C@@H]2O[C@H](CO)[C@@H](O)[C@H](O)[C@H]2O)[C@@H](N=C(N)N)[C@@H]1O	MIC		666			>100 µg/mL
O=[N+]([O-])c1ccc(Sc2nc3c(Cl)cc(Cl)cc3[nH]2)cc1	MIC		My 331/88			2 µM
CN(C)C1=C(Cl)C(=O)c2[nH]cnc2C1=O	MIC bound		H37Rv	BACTEC		>12.5 µg/mL
O=[N+]([O-])c1cc(Sc2nc3c(Br)c(Br)c(Br)c(Br)c3[nH]2)cc([N+](=O)[O-])c1	MIC		My 331/88			8 µM
Nc1ccc2cc(-c3ccccc3)c(N3CCCCC3)nc2n1	inhibition		H37Rv		6.25 µg/mL	59%
CC(C)(C)n1cc(C(=O)O)c(=O)c2cc([N+](=O)[O-])c(N3CCOCC3)cc21	MIC50		ATCC 27294 (WT)			0.2 µM
S=C(Nc1ccccc1)N1N=C(c2ccccc2)CC1c1ccc(Cl)cc1	MIC		H37Ra	MTT		511 µM
O=[N+]([O-])c1cccc2c(C3CCCC3)cc(C3CCCC3)nc12	MIC		Rifampicin-resistant			25 µg/mL
C/C(=N/NC(=S)N1CCC(C)CC1)c1nccnc1C	MIC		TAC-R			1.6 µg/mL
O=C(O)c1cn(C2CCCCC2)c2cc(NC3CCCCC3)c([N+](=O)[O-])cc2c1=O	MIC50		ATCC 27294 (WT)			>200 µM
c1ccc(-c2cc3ccc(N4CCOCC4)nc3nc2N2CCCCC2)cc1	inhibition		H37Rv		6.25 µg/mL	83%
Nc1ncnc2c1ncn2[C@@H]1O[C@H](CNS(=O)(=O)C(F)(F)C(=O)c2ccccc2O)[C@@H](O)[C@H]1O	MIC					>100 µM
FC(F)(F)C(F)(F)c1nc2c(Br)cc(Br)cc2[nH]1	MIC		My 331/88			16 µM
CO[C@H]1/C=C/O[C@@]2(C)Oc3c(C)c(O)c4c(O)c(c5c(c4c3C2=O)NC2(C[C@@H](c3ccccc3)N[C@@H](c3ccccc3)C2)N=5)=NC(=O)/C(C)=C\C=C\[C@H](C)[C@H](O)[C@@H](C)[C@H](O)[C@H](C)[C@H](OC(C)=O)[C@@H]1C	MIC		ATCC 35838 (rifampicin- rifabutin-resistant)			1 µg/mL
O=C1C=C[C@@H](COC2OC(CO)C(O)C(O)C2O)O1	MIC		H37Rv	BACTEC		6.25 µg/mL
NNC(=O)c1cc(/C=C/c2ccc(-c3cccs3)s2)nc2ccccc12	MIC		H37Rv	fluorescence		>6.25 µg/mL
CCCCCOc1c(C(C)=O)cc([N+](=O)[O-])c2nccc(CC)c12	MIC		H37Rv			>6.25 µg/mL
FC(F)(F)c1ccc(CSc2ncn[nH]2)cc1	MIC		My 331/88			250 µM
CC1(C)OC(=O)C(=CN(C2CCCCC2)C2CCCCC2)C(=O)O1	MIC bound		H37Rv	BACTEC		>12.5 µg/mL
Cn1cnnc1SCc1cccc(Br)c1	MIC		My 331/88			1000 µM
O=Nc1sc(=S)n(C2CCCCC2)c1O	MIC bound		H37Rv	BACTEC		>12.8 µg/mL
N#Cc1cccc(CSc2ncn[nH]2)c1	MIC		My 331/88			>1000 µM
CO[C@H]1/C=C/O[C@@]2(C)Oc3c(C)c(O)c4c(O)c(c(/C=N/N5CCN(C)CC5)c(O)c4c3C2=O)NC(=O)/C(C)=C\C=C\[C@H](C)[C@H](O)[C@@H](C)[C@@H](O)[C@@H](C)[C@H](OC(C)=O)[C@@H]1C	MIC		MTCC 300	agar diffusion / agar		280 µg/mL
O=C(O)c1cn(N2CCSCC2)c2cc(NC3CC3)c([N+](=O)[O-])cc2c1=O	MIC50		ATCC 27294 (WT)			8 µM
CC(=O)OC1C2CC(C)(C)CC2=C(C=O)C2(C=O)CC12C	inhibition		H37Rv	BACTEC	12.5 µg/mL	-1%
NNC(=O)c1ccncc1	MIC		H37Ra	MTT		5 µM
COc1cc2c(=O)[nH]c3cc(N)ccc3c2cc1N	inhibition		H37Rv	BACTEC	12.5 µg/mL	69%
COc1c(N2CCNC(C)C2)c(F)cc2c(=O)c(C(=O)O)cn(C3CC3)c12	MIC		Strain 474			0.06 µg/mL
NNC(=O)c1cc(-c2ccccc2)nc2ccccc12	MIC		H37Rv	fluorescence		>6.25 µg/mL
COC(=O)CC[C@@H](C)[C@H]1CCC2C3C(C[C@H](O)[C@@]21C)[C@@]1(C)CC[C@H](n2cc(CNCCNc4ccnc5cc(Cl)ccc45)nn2)C[C@H]1C[C@H]3O	MIC90		H37Rv	resazurin		8.8 µM
COc1ccccc1C1CC(c2ccccc2)=NN1C(=S)Nc1ccccc1	MIC		H37Ra	MTT		>517 µM
O=C1CCC(N2C(=O)c3ccccc3C2=O)C(=O)N1	MIC bound		H37Rv	BACTEC		>12.5 µg/mL
O=C(O)c1cn(N2CCOCC2)c2cc(NC3CC3)c([N+](=O)[O-])cc2c1=O	MIC50		ATCC 27294 (WT)			14.6 µM
Nc1ncnc2c1ncn2[C@@H]1O[C@H](COS(N)(=O)=O)[C@@H](O)[C@H]1O	MIC					50 µM
FC(F)(F)C(F)(F)c1nc2c(Br)c(Br)c(Br)c(Br)c2[nH]1	MIC		My 331/88			8 µM
Cc1ccc(NN(NC(=O)OC(C)C)C(=O)OC(C)C)cc1	MIC bound		H37Rv	BACTEC		>12.5 µg/mL
O=C(Nc1nc(-c2cccs2)cs1)c1cc(-c2ccc(-c3ccc([N+](=O)[O-])s3)s2)nc2ccccc12	MIC		H37Rv	fluorescence		6.25 µg/mL
S=C(Nc1ccc(Cl)c(Cl)c1)SCc1ccc2c(c1)OCO2	MIC bound		H37Rv	BACTEC		≤128 µg/mL
O=C(Nc1ccccc1)c1cc(-c2ccc(-c3cccs3)s2)nc2ccccc12	MIC		H37Rv	fluorescence		>6.25 µg/mL
O=[N+]([O-])c1cc(Sc2nc3ccc(Br)cc3[nH]2)cc([N+](=O)[O-])c1	MIC		My 331/88			4 µM
S=C=NP1(N=C=S)=NP(N=C=S)(N=C=S)=NP(N=C=S)(N=C=S)=N1	MIC bound		H37Rv	BACTEC		≤128 µg/mL
CCN1CCN(c2cc(-c3ccccc3)c3ccc(OC)nc3n2)CC1	MIC		H37Rv			>6.25 µg/mL
CC(=O)c1cc([N+](=O)[O-])c2nc(C(C)(C)C)ccc2c1	MIC		H37Rv			>6.25 µg/mL
CCN1CCN(c2cc(-c3ccccc3)c3ccc(N)nc3n2)CC1	inhibition		H37Rv		6.25 µg/mL	69%
Cc1nn(-c2ccccc2)c2c1C(c1cn(-c3ccccc3)nc1-c1ccc(F)cc1)C1=C(NC(C)(c3cc(O)c(Cl)c(O)c3)NC1=O)O2	MIC		MTCC 300	agar diffusion / agar		1000 µg/mL
O=C(Nc1nc(-c2ccc(Br)s2)cs1)c1cc(-c2ccccc2)nc2ccccc12	MIC		H37Rv	fluorescence		>6.25 µg/mL
CCCCCCCOc1c(C(C)=O)cc(N)c2nccc(CC)c12	MIC		H37Rv			>6.25 µg/mL

6 of the rows above, restated:

compound | measure | cell line | strain | read by | tested at | value
O=C1CCC(N2C(=O)c3ccccc3C2=O)C(=O)N1 | MIC bound |  | H37Rv | BACTEC |  | >12.5 µg/mL
CO[C@H]1/C=C/O[C@@]2(C)Oc3c(C)c(O)c4c(O)c(c5c(c4c3C2=O)NC2(C[C@@H](c3ccccc3)N[C@@H](c3ccccc3)C2)N=5)=NC(=O)/C(C)=C\C=C\[C@H](C)[C@H](O)[C@@H](C)[C@H](O)[C@H](C)[C@H](OC(C)=O)[C@@H]1C | MIC |  | ATCC 35838 (rifampicin- rifabutin-resistant) |  |  | 1 µg/mL
NNC(=O)c1cc(-c2ccccc2)nc2ccccc12 | MIC |  | H37Rv | fluorescence |  | >6.25 µg/mL
CC(C)c1cc2c(c(O)c1O)[C@@]13C[C@@H](O)CC(C)(C)[C@@H]1C[C@@H]2OC3=O | MIC |  | H37Rv (ATCC 27294) |  |  | >650 µM
O=[N+]([O-])c1ccc(CSc2ncn[nH]2)cc1 | MIC |  | My 331/88 |  |  | 1000 µM
N#Cc1cccc(CSc2ncn[nH]2)c1 | MIC |  | My 331/88 |  |  | >1000 µM